Source: PubChem BioAssay AID434987 (Southern Research Specialized Biocontainment Screening …, 2010)
The source made the active and inactive calls. How the calls were made is not given here.

System: M. tuberculosis H37Rv growth inhibition with meropenem
Assay: dose response, H37Rv, with and without meropenem (AID 434987);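 further: growth over 7 days at 37 °C before Alamar Blue read on day 9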
[1] = M. tuberculosis H37Rv growth inhibition, measured here: IC50 without meropenem
[2] = M. tuberculosis H37Rv growth inhibition, measured here: IC90 without meropenem
[3] = measured here: IC90 with meropenem

Structure (SMILES) | IC50 | IC50 [1] | IC90 [2] | IC90 [3]
Nc1ccc([As](=O)(O)c2ccc(N)cc2)cc1 | 6.6 µM | 21.2 µM | 34.9 µM | 63.9 µM
CCOC(=O)Nc1ccc([As](=O)(O)O)c(O)c1 | 4.21 µM | 15.6 µM | 36.1 µM | > 100 µM
O=[As](O)(c1ccc(O)cc1)c1ccccc1O | inactive: 12.7 µM | 30 µM | 51.3 µM | 57.6 µM
Nc1ccc([As](=O)(O)c2ccc([N+](=O)[O-])cc2)cc1 | 2.04 µM | 10.1 µM | 36.4 µM | 7.99 µM
